Measurements as given in patent publication US6846489B1, “Vaccines containing a saponin and a sterol” (priority 1995, dated 2005).

Test system: gp120
Conditions: intra-footpad with gp120

Substance: QS21
- cytotoxic T-lymphocyte (CTL) activity in spleen cells: indicates CTL activity
